Results of unrelated studies side by side (data: NIAID ChemDB).

Shared fields: cytotoxicity tests; read-out: CC50

CCn is the concentration with n% toxicity to the cells. Lines come from different laboratories, so protocols vary. An empty or dashed field is not shown.

structure | method | cell line | value
Cc1cc(CCCCCCCOc2cc(C)nc3ccccc23)on1 | crystal violet | WIS HELA | 50 µg/mL
O=S(=O)(NCCc1ccc2c(n1)NCCC2)c1c(F)cccc1F | - | PBMC | 50 µM
O=C1NC(=O)/C(=C/c2ccc(OCc3ccc(-c4ccccc4)cc3)cc2)S1 | MTS | HepG2-NTCP | >10 µM
Cc1ccc(C)c(C(C)S(=O)(=O)c2cccc(Cl)[n+]2[O-])c1 | cell count | CEM | 4.5 µg/mL
O=C1NC(=O)/C(=C/c2ccc(-c3ccc(Oc4ccccc4)cc3)cc2)S1 | MTS | HepG2-NTCP | >10 µM
CCCN([C@H](CO)CCC[C@@H](NC(=O)[C@@H](NC(=O)OC)C(c1ccccc1)c1ccccc1)C(F)(F)F)S(=O)(=O)c1ccc(CO)cc1 | microscopy | T lymphoid cells | >10 µM
Cc1cn([C@@H]2O[C@H](CO)[C@@H](CO)[C@@H]2F)c(=O)[nH]c1=O | - | PBM | ≥100 µM
CCCCS(=O)(=O)Nc1ccc2[nH]c(C(=O)NC(C)C)c(C)c2c1 | resazurin | VERO | 140 µM
C=C[C@@H](CCC[C@@H](CO)N(CCC(C)C)S(=O)(=O)c1ccc(CO)cc1)NC(=O)[C@@H](NC(=O)OC)C(c1ccccc1)c1ccccc1 | microscopy | T lymphoid cells | >10 µM
Cc1ccc(-n2ncc3c(NC(=O)Nc4ccc(S(N)(=O)=O)cc4)ncnc32)c(C)c1 | - | HUH 9B | 26 µM
Cc1ccc(C)c(C(C)(Cl)S(=O)(=O)c2cccc[n+]2[O-])c1 | cell count | CEM | 23 µg/mL
COc1cc(OC[C@H]2CC[C@@H](COCc3ccccc3)O2)ncn1 | - | L1210 | 83 µM
CCCCS(=O)(=O)Nc1ccc2[nH]c(C(=O)Nc3ccc4ccccc4c3)c(C)c2c1 | resazurin | VERO | >110 µM
c1ccc(-n2nccc2CCCCCCOc2cccc3ccccc23)cc1 | crystal violet | WIS HELA | 25 µg/mL
O=C(NCCc1ccc2c(n1)NCCC2)Nc1ccc(OCc2ccccc2)cc1 | - | PBMC | 7.9 µM
O=[N+]([O-])c1c(Cl)nc(C(F)(F)F)nc1N1CC[N+]2(CC1)CC[N+]1(CCN(c3nc(C(F)(F)F)nc(Cl)c3[N+](=O)[O-])CC1)CC2 | - | GMK | >652.5 µg/mL
COC(=O)N[C@H](C(=O)N[C@@H](CCC[C@@H](CO)N(CCC(C)C)S(=O)(=O)c1ccc(CO)cc1)C(F)(F)F)C(c1ccccc1)c1ccccc1 | microscopy | T lymphoid cells | >10 µM
Cc1cccc(CNC(=O)NCCc2cccc(-n3ccnc3)n2)c1 | - | PBMC | 50 µM
O=C1NC(=O)/C(=C/c2ccc(-c3ccc4c5ccccc5c5ccccc5c4c3)cc2)S1 | MTS | HepG2-NTCP | >10 µM
COC(=O)C1=C2Nc3ccccc3[C@@]23CCN2[C@H](O)[C@]4(CC5C[C@]67CC(=O)O[C@H]6CCC6NC[C@@]8(c9cccc(OC)c9N(C4)[C@@H]58)[C@@H]67)[C@@H]4OCC[C@]4(C1)[C@H]23 | absorbance | HL-60 | 0.75 µM
Nc1nc(OC[C@H]2CC[C@@H](COCc3ccccc3)O2)c2[nH]cnc2n1 | - | L1210 | 140 µM
Cc1ccc(CS(=O)(=O)c2c(C)ccc[n+]2[O-])c(C)c1 | cell count | CEM | 11 µg/mL
CCN([C@H](CO)CCC[C@H](C)NC(=O)[C@@H](NC(=O)OC)C(c1ccccc1)c1ccccc1)S(=O)(=O)c1ccc(N)cc1 | microscopy | T lymphoid cells | >10 µM
Cc1c(C#N)[nH]c2ccc(N3CCCC3)cc12 | resazurin | VERO | 220 µM
COc1cc(NC(=O)NCC2CCc3ccccc3N2)cc(OC)c1 | - | PBMC | 50 µM
CCOc1ccccc1CS(=O)(=O)c1cccc[n+]1[O-] | cell count | CEM | 37 µg/mL
O=C(NCCc1ccc2c(n1)NCCC2)Nc1ccc(C(F)(F)F)nc1 | - | PBMC | 5 µM
C1CN(CC2CO2)CC[N+]2(C1)CC[N+]1(CCCN(CC3CO3)CC1)CC2 | - | L929 | 312.9 µg/mL
CCOc1ccc(Nc2ncnc3c2cnn3-c2ccc(C)cc2C)cc1 | - | HUH 9B | >34 µM
O=C1NC(=O)C(Cc2ccc(OCc3ccc(-c4ccccc4)cc3)cc2)S1 | MTS | HepG2-NTCP | >10 µM
Cc1cc(C=O)cc(C)c1Oc1cc(Nc2ccc(C#N)cc2)nc2ccccc12 | MTT | HL-60 | 4.5 µM
Nc1nc2c(ncn2CCC(CO)CO)c(=O)[nH]1 | cell count | NIH 3T3 | 91 µM
Clc1cnn(-c2ccccc2)c1CCCCCCOc1ccc2c(c1)[nH]c1ccccc12 | crystal violet | WIS HELA | 25 µg/mL
NC1=NC2C(C=CN2CC(CO)CCO)C(=O)N1 | cell count | NIH 3T3 | >200 µM
COc1cc(/C=C(/C#N)Sc2cccc[n+]2[O-])cc(OC)c1OC | cell count | CEM | 3.3 µg/mL
Cc1cc(OCCCCCCc2ccns2)c2ccccc2n1 | crystal violet | WIS HELA | 5 µg/mL
FC(F)(F)c1ccccc1-n1ncc2c(NCCc3c[nH]c4ccccc34)ncnc21 | - | HUH 9B | 32 µM
Cc1ccc(C)c(CS(=O)c2cccc[n+]2[O-])c1 | cell count | CEM | 48 µg/mL
CCOC(=O)[C@@]1(C)CC[C@]2(C)CC[C@]3(C)C(=CC(=O)[C@@H]4[C@@]5(C)CC/C(=N\OCc6c(C)noc6C)C(C)(C)[C@@H]5CC[C@]43C)[C@@H]2C1 | MTT | CT26 | 7.39 µM
Nc1nc(=O)n([C@H]2C[C@H](O)[C@@H](CO)O2)cc1/C=C/Cl | cell count | RF | 469 µM
Cc1ccc(-n2ncc3c(NC(=O)Nc4ccc(C#N)cc4)ncnc32)c(C)c1 | - | HUH 9B | 19 µM
c1ccc(-n2nccc2CCCCCCOc2ccc3c(c2)oc2ccccc23)cc1 | crystal violet | WIS HELA | 50 µg/mL
COC(=O)N[C@@H](Cc1ccccc1Cl)C(=O)N[C@@H](C)CCC[C@@H](CN)N(CCC(C)C)S(=O)(=O)c1ccc(N)cc1 | microscopy | T lymphoid cells | >10 µM
CCCCCS(=O)(=O)Nc1ccc2[nH]c(C(=O)OCC)c(C)c2c1 | resazurin | VERO | >140 µM
CCOC(=O)[C@@]1(C)CC[C@]2(C)CC[C@]3(C)C(=CC(=O)[C@@H]4[C@@]5(C)CC/C(=N\OCc6ccccc6C#N)C(C)(C)[C@@H]5CC[C@]43C)[C@@H]2C1 | MTT | CT26 | 76.52 µM
Cc1ccc(C)c(CS(=O)(=O)c2ccccn2)c1 | cell count | CEM | 51 µg/mL
Nc1nc(Cl)cc(OC[C@@H]2O[C@H](COCc3ccccc3)[C@@H](OCc3ccccc3)[C@H]2OCc2ccccc2)n1 | - | PC-3 | 45 µM
Cc1ccc(-n2ncc3c(Nc4ccc(N5CCOCC5)cc4)ncnc32)c(C)c1 | - | HUH 9B | 57 µM
O=S(=O)(Cc1ccccc1)c1ccccn1 | cell count | CEM | 68 µg/mL
CCOC(=O)c1ccc(CO/N=C2\CC[C@]3(C)[C@H]4C(=O)C=C5[C@@H]6C[C@@](C)(C(=O)OCC)CC[C@]6(C)CC[C@@]5(C)[C@]4(C)CC[C@H]3C2(C)C)o1 | MTT | K562 | 27.39 µM
O=[N+]([O-])c1ccc(CS(=O)(=O)c2cccc[n+]2[O-])cc1 | cell count | CEM | 7.6 µg/mL
CCCCS(=O)(=O)Nc1ccc2[nH]c(C(=O)NCCc3ccccc3)c(C)c2c1 | resazurin | VERO | >120 µM
Cc1ccc(CS(=O)(=O)c2cccc[n+]2[O-])cc1 | cell count | CEM | 24 µg/mL
O=C(NCc1ccc(Cl)cc1)c1c[nH]c2ccc(CCCO)cc2c1=O | - | 10T1/2 | >100 µM
Cc1nc(N2CC[N+]3(CC2)CC[N+]2(CCNCC2)CC3)c([N+](=O)[O-])c(N2CC[N+]3(CC2)CC[N+]2(CCNCC2)CC3)n1 | - | GMK | >571.8 µg/mL
Nc1nc(=O)n([C@@H]2O[C@H](CO)[C@@H](O)[C@@H]2F)cc1I | cell count | RF | ≥383 µM
COC(=O)C(c1cc(C)ccc1C)S(=O)(=O)c1cccc[n+]1[O-] | cell count | CEM | 36 µg/mL
CCOC(=O)[C@@]1(C)CC[C@]2(C)CC[C@]3(C)C(=CC(=O)[C@@H]4[C@@]5(C)CC/C(=N\OCc6ccc(C(F)(F)F)cc6)C(C)(C)[C@@H]5CC[C@]43C)[C@@H]2C1 | MTT | CT26 | >100 µM
Nc1nccc(OC[C@@H]2O[C@H](CO)[C@@H](O)[C@H]2O)n1 | - | CAKI-1 | 202 µM
Cc1cccc(CS(=O)c2cccc[n+]2[O-])c1 | cell count | CEM | 37 µg/mL
Cc1ccccc1-n1ncc2c(NCCc3c[nH]c4ccccc34)ncnc21 | - | HUH 9B | 24 µM
CCCCS(=O)(=O)Nc1ccc2[nH]c(C(=O)NC(C)(C)c3ccccc3)c(C)c2c1 | resazurin | VERO | >110 µM
O=S(=O)(Cc1ccccc1Oc1ccccc1)c1cccc[n+]1[O-] | cell count | CEM | 10 µg/mL
O=C(CCBr)N1CC[N+]2(CC1)CC[N+]1(CCN(C(=O)CCBr)CC1)CC2 | - | GMK | >883.1 µg/mL
Cc1ccccc1C(c1ccccc1)S(=O)(=O)c1cccc[n+]1[O-] | cell count | CEM | 47 µg/mL
Nc1c(N2CC[N+]3(CC2)CC[N+]2(CCN(c4nc[nH]c(=O)c4N)CC2)CC3)nc[nH]c1=O | - | L929 | >82.4 µg/mL
Nc1ccnc(OC[C@H]2CC[C@@H](COCc3ccccc3)O2)n1 | - | L1210 | ≥250 µM
COc1cccnc1SCc1ccccc1 | cell count | CEM | 87 µg/mL
COC(=O)N[C@H](C(=O)N[C@H](CCC[C@@H](CO)N(CCC(C)C)S(=O)(=O)c1ccc(CO)cc1)C1CC1)C(c1ccc(F)cc1)c1ccc(F)cc1 | microscopy | T lymphoid cells | >10 µM
COc1ccc(CSc2cc(C(C)(C)C)cc[n+]2[O-])cc1 | cell count | CEM | 48 µg/mL
Cc1ccc(-n2ncc3c(NCCc4ccc(Cl)cc4)ncnc32)c(C)c1 | - | HUH 9B | 32 µM
Nc1cc(OC[C@H]2CC[C@@H](CO)O2)nc(N)n1 | - | CAKI-1 | >250 µM
Cc1ccc(C)c(C(CO)S(=O)(=O)c2ccccn2)c1 | cell count | CEM | ≥100 µg/mL
N#C/C(=C(\N)N1CC[N+]2(CC1)CC[N+]1(CCN(/C(N)=C(/C#N)[N+](=O)[O-])CC1)CC2)[N+](=O)[O-] | - | GMK | >820.3 µg/mL
Cc1ccc(C)c(C(Cc2ccccc2)S(=O)(=O)c2cccc[n+]2[O-])c1 | cell count | CEM | 30 µg/mL
Cc1ccc(-n2ncc3c(Nc4ccc(C(N)=O)cc4)ncnc32)c(C)c1 | - | HUH 9B | >50 µM
[O-][n+]1c(Cl)cccc1SCc1ccccc1 | cell count | CEM | 48 µg/mL
CCCCS(=O)(=O)Nc1ccc2[nH]c(C(=O)NCc3ccccc3Cl)c(C)c2c1 | resazurin | VERO | >110 µM
N#Cc1ccc(CS(=O)(=O)c2cccc[n+]2[O-])cc1 | cell count | CEM | 12 µg/mL
Nc1nc(OC[C@H]2CC[C@@H](COCc3ccccc3)O2)cc(OC[C@@H]2CC[C@H](COCc3ccccc3)O2)n1 | - | CAKI-1 | 40 µM

For reference, 6 entries again:

structure | method | cell line | value
COc1cccnc1SCc1ccccc1 | cell count | CEM | 87 µg/mL
CCOC(=O)c1ccc(CO/N=C2\CC[C@]3(C)[C@H]4C(=O)C=C5[C@@H]6C[C@@](C)(C(=O)OCC)CC[C@]6(C)CC[C@@]5(C)[C@]4(C)CC[C@H]3C2(C)C)o1 | MTT | K562 | 27.39 µM
O=C1NC(=O)C(Cc2ccc(OCc3ccc(-c4ccccc4)cc3)cc2)S1 | MTS | HepG2-NTCP | >10 µM
Nc1nc(=O)n([C@@H]2O[C@H](CO)[C@@H](O)[C@@H]2F)cc1I | cell count | RF | ≥383 µM
Cc1ccc(-n2ncc3c(Nc4ccc(N5CCOCC5)cc4)ncnc32)c(C)c1 | - | HUH 9B | 57 µM
Cc1nc(N2CC[N+]3(CC2)CC[N+]2(CCNCC2)CC3)c([N+](=O)[O-])c(N2CC[N+]3(CC2)CC[N+]2(CCNCC2)CC3)n1 | - | GMK | >571.8 µg/mL